Measurements taken from patent US10947274B1 (priority 2018, dated 2021).

The chains behind the UniProt entries cited, without tags or fusion partners. Residues count along the entry.
UniProt Q9GZZ6, 25-450 limits assumed: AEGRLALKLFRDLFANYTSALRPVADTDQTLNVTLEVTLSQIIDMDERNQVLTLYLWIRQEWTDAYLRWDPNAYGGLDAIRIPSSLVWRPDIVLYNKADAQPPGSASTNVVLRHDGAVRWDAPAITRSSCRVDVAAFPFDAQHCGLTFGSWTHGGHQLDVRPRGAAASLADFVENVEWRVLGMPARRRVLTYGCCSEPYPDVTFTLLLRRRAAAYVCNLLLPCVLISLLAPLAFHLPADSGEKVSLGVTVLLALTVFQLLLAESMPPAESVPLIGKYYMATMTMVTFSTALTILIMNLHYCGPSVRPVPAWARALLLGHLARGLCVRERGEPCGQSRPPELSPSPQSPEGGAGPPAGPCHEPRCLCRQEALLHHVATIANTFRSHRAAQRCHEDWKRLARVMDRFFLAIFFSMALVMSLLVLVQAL
UniProt Q9UGM1, 26-479 limits assumed: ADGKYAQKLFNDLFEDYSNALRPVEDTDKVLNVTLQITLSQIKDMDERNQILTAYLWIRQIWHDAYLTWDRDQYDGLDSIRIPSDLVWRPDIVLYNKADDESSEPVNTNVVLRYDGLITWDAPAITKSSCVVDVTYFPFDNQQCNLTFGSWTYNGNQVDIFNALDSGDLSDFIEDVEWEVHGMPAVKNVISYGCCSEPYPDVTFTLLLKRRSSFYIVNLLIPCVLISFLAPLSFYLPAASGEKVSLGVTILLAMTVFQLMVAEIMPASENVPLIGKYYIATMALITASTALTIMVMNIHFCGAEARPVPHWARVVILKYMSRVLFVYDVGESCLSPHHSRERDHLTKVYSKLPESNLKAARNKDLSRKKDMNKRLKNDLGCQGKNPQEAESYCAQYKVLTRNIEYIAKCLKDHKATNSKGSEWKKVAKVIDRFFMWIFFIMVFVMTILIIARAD

Target: human α9α10 nAChR (Homo sapiens, UniProt Q9GZZ6+Q9UGM1)
Assay: Block of acetylcholine response at cloned human α9α10 nAChR expressed in Xenopus oocytes (voltage clamp)
Conditions: Table 1

SMILES: C[C@@H](O)[C@@H]1NC(=O)[C@H]2NC(=O)[C@@H](NC(=O)CN)CSSC[C@H](NC(=O)[C@H](CCCNC(=N)N)NC(=O)[C@@H]3CCCN3C(=O)[C@H](CC(=O)O)NC1=O)C(=O)N[C@@H](CCCNC(N)=O)C(=O)N[C@@H](Cc1ccc(O)c(I)c1)C(=O)N[C@@H](CCC(N)=O)C(=O)N[C@H](C(=O)N[C@H](Cc1ccc(O)cc1)C(=O)O)CSSC2(C)C
- IC50: 4.6 nM

Some compounds may have been tested in ways that are not shown here.
